Read-outs that look alike come from different tables or passages of the source.
Assays:
[1] = target: E. coli Topoisomerase IV (Escherichia coli, UniProt P0AFI2+P20083); experiment: Topoisomerase IV decatenation assay (E. coli); format: biochemical; conditions: for % inhibition Topo IV: n/a = not active
[2] = target: S. aureus DNA gyrase (Staphylococcus aureus, UniProt P0A0K8+P20831); experiment: DNA gyrase supercoiling assay (S. aureus); conditions: for % inhibition DNA gyrase: n/a = not active
[3] = target: E. coli DNA gyrase (Escherichia coli, UniProt P0AES4+P0AES6); experiment: DNA gyrase supercoiling assay (E. coli); format: biochemical; conditions: for % inhibition DNA gyrase: n/a = not active
[4] = target: S. aureus Topoisomerase IV (Staphylococcus aureus, UniProt P0C1S7+P0C1U9); experiment: Topoisomerase IV decatenation assay (S. aureus); format: biochemical; conditions: for % inhibition Topo IV: conc. 50 μM, n/a = not active; for IC50: read-out: IC50 Topo IV, concentration-response curve, eight half-log concentrations 0.1 to 300 μM
Protocol: The above compounds were tested for the inhibition of the enzyme DNA gyrase in a gyrase supercoiling assay and for the inhibition of the enzyme topoisomerase IV in a decatenation assay, in both Gram positive and Gram negative bacteria, according to the following methods.
Both the assays were carried out according to a set-up method modified from the article to Blanche F, et al. “Differential Behaviors of Staphylococcus aureus and Escherichia coli Type II DNA Topoisomerases”, Antimicrob. Agents Chemother., 1996, Vol. 40, No. 12 p. 2714-2720.
The compounds were screened at single concentration (200, 100 or 50 μM), in duplicate.
S. aureus and E. coli Topoisomerase IV decatenation kits (Inspiralis, UK) were used. A master mix with a total volume sufficient for the number of reactions to perform was prepared with the following reagents: 5× assay buffer (50 mM HEPES-KOH (pH 7.6), 100 mM potassium glutamate, 10 mM magnesium acetate, 10 mM DTT, 1 mM ATP, 50 μg/ml albumin), kDNA substrate (200 ng/reaction), RNase-DNase free water. Aliquots of this mix were dispensed in each tube, then 10× compound stock solutions or vehicle control (DMSO), were added in each reaction tube.
Reaction was started with Topoisomerase IV enzyme (0.5 U/reaction) addition.
A sample added with an equal volume of dilution buffer was used as negative control (without enzyme).
The reaction tubes were gentle vortexed and incubated 30 minutes at 37° C. Each reaction was stopped by adding 30 μl of Stop Buffer and 30 μl of chloroform/isoamyl alcohol (24/1), briefly vortexed for 5-10 seconds and centrifuged at 20000×g for 2 minutes. Samples taken from the upper phase were loaded into 1% agarose gel and subjected to electrophoresis for 1 hour at 80V constant voltage in TAE (40 mM Tris-acetate, 2 mM EDTA).
Data acquisition and analysis. Due to the high molecular mass, kDNA could not enter an agarose gel under normal electrophoresis conditions, but remained in the wells. In the presence of Topo IV topoisomerase mini-circles (2.5 Kb) were released from kDNA by decatenation and were quickly and easily resolved in the gel at relatively high voltages.
Bands were visualized by ethidium bromide staining (dil 1:20000) for 30 minutes followed by destaining in distilled water for 10 minutes.
For single concentration screening assay, in order to evaluate the compounds activity on the enzymes, the bands of decatenated DNAs in the gel were photographed by a digital imaging system ImageQuant LAS 4000 (GE Healthcare) according to manufacturer's instructions.
The fluorescent intensity of each band was analyzed by ImageQuant TL software and it was expressed as volume (volume of the uncalibrated quantity of material in the image feature after subtraction of the background intensity by using rolling ball method).
Each band intensity was compared, as percentage, to vehicle sample band intensity, which served as positive control, on the same gel.
Inhibitory activity was expressed as percent of inhibition versus the positive control.
The supercoiled or decatenated DNA bands obtained as described in Example 1 were analysed as follows.
Bands were analyzed by gel documentation equipment (Syngene, Cambridge, UK) and quantitated using Syngene Gene Tools software. Raw gel data (fluorescent band volumes) collected from Syngene, GeneTools gel analysis software were converted to a percentage of the 100% control (the fully supercoiled or decatenated DNA band). […] The IC50 data were calculated by using the global curve fit non-linear regression tool by selecting the Single, 2 Parameter fit function from the Exponential Decay equation category.

Chains of the proteins cited; added tags and fusions are not shown.
UniProt P0AFI2, whole entry: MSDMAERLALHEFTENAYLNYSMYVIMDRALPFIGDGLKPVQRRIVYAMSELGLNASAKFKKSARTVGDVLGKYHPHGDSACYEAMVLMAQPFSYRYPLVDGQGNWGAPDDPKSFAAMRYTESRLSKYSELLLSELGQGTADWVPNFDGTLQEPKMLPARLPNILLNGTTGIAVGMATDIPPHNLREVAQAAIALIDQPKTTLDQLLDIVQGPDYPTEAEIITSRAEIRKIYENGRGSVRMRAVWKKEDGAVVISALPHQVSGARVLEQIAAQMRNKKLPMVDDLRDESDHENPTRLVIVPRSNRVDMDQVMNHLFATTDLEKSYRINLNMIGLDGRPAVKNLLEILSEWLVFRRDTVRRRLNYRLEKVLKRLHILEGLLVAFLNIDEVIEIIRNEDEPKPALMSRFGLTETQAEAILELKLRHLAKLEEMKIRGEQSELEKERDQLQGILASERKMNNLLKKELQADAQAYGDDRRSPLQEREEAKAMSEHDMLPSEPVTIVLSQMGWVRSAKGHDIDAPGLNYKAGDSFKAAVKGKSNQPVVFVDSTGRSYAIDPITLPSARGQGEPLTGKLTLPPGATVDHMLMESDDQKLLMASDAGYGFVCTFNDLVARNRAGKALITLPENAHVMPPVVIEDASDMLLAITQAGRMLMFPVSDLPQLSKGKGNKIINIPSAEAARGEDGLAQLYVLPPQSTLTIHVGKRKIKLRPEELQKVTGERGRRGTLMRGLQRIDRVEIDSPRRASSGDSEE
UniProt P20083, whole entry: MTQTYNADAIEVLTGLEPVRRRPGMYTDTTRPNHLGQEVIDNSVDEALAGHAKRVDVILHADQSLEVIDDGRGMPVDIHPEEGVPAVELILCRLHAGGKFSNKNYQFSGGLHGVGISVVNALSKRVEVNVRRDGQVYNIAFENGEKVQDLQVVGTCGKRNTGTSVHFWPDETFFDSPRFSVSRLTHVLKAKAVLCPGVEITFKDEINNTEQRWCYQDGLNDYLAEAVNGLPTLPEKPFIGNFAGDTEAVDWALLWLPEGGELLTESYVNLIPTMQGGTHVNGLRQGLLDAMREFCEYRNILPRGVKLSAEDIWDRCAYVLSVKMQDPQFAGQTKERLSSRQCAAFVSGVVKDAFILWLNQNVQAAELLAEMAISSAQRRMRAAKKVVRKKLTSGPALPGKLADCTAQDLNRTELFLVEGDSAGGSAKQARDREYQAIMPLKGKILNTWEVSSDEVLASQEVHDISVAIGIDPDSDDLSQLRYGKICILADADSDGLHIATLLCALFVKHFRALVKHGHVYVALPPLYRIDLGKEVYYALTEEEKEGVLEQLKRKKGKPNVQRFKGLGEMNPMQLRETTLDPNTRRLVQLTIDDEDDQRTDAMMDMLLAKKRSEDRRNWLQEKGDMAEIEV
UniProt P0A0K8, whole entry: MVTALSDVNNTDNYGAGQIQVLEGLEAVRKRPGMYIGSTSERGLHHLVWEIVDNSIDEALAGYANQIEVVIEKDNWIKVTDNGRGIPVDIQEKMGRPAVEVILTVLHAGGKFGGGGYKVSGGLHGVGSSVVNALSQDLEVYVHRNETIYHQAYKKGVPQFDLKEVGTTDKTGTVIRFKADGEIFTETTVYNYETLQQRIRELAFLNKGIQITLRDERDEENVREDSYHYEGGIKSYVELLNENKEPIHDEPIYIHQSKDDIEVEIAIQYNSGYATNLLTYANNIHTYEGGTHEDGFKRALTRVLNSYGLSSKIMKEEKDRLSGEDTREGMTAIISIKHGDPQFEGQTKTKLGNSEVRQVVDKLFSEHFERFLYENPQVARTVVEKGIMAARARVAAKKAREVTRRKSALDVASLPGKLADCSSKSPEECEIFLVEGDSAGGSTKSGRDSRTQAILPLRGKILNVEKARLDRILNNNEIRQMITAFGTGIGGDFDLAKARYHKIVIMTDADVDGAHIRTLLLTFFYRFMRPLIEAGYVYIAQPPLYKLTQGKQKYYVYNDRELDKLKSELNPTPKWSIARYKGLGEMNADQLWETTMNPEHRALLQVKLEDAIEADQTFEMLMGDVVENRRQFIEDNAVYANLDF
UniProt P20831, whole entry: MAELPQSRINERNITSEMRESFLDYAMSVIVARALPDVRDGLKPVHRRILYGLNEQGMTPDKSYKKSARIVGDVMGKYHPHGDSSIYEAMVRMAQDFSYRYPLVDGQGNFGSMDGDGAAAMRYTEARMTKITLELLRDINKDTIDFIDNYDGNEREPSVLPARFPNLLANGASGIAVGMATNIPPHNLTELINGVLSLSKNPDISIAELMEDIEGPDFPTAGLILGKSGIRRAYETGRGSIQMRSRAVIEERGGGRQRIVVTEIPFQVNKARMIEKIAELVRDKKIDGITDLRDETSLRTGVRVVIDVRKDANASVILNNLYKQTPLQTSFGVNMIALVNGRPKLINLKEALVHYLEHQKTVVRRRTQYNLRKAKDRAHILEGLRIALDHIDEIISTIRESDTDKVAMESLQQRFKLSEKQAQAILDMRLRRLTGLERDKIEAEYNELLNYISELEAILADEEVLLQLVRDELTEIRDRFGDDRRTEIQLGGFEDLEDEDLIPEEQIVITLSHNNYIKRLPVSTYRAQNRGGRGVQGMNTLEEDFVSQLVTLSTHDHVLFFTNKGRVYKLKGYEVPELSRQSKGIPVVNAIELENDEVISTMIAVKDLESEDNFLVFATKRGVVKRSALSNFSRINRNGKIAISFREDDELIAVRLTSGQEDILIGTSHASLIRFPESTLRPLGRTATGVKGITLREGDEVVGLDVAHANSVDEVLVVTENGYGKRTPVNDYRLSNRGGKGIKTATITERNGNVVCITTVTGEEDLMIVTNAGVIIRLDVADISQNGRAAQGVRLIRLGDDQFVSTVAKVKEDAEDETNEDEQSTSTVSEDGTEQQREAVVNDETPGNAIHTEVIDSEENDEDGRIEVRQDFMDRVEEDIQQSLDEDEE
UniProt P0AES4, whole entry: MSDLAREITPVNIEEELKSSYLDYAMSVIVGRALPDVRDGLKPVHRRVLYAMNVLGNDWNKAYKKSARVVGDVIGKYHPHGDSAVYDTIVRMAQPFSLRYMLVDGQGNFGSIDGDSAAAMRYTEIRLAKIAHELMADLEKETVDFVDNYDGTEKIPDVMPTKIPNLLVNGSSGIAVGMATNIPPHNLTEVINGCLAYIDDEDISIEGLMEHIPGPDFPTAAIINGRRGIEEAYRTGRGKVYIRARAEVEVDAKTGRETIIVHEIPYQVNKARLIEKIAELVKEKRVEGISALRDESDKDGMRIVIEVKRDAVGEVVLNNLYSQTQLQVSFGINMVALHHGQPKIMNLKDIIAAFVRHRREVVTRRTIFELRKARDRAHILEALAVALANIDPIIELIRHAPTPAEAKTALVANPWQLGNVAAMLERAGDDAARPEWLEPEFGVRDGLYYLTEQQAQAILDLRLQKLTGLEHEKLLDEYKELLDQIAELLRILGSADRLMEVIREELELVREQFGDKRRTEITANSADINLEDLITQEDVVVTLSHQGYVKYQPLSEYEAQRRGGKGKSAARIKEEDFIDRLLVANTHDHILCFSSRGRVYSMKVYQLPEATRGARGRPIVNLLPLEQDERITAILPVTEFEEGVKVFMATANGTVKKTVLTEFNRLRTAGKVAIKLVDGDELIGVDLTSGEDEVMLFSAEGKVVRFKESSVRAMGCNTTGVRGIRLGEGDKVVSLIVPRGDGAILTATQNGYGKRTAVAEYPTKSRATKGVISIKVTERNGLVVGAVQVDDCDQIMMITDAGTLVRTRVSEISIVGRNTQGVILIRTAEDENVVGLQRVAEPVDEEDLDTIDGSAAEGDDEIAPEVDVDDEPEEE
UniProt P0C1S7, whole entry: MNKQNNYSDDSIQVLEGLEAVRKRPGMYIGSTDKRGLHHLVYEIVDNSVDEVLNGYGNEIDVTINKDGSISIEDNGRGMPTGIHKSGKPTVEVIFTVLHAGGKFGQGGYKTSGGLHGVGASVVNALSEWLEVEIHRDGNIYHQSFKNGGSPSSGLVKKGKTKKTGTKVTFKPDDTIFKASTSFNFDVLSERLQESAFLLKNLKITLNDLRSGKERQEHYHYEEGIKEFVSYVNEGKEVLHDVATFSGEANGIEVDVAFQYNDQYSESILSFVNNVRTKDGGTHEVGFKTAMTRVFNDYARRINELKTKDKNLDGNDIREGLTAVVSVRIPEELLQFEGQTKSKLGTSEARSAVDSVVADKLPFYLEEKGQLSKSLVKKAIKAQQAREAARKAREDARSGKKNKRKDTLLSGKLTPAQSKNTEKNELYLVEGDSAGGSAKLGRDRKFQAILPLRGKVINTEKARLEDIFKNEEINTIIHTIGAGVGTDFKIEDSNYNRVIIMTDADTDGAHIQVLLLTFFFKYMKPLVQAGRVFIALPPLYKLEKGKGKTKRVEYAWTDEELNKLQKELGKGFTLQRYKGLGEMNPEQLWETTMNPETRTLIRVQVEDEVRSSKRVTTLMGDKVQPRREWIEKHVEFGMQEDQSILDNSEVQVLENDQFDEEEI
UniProt P0C1U9, whole entry: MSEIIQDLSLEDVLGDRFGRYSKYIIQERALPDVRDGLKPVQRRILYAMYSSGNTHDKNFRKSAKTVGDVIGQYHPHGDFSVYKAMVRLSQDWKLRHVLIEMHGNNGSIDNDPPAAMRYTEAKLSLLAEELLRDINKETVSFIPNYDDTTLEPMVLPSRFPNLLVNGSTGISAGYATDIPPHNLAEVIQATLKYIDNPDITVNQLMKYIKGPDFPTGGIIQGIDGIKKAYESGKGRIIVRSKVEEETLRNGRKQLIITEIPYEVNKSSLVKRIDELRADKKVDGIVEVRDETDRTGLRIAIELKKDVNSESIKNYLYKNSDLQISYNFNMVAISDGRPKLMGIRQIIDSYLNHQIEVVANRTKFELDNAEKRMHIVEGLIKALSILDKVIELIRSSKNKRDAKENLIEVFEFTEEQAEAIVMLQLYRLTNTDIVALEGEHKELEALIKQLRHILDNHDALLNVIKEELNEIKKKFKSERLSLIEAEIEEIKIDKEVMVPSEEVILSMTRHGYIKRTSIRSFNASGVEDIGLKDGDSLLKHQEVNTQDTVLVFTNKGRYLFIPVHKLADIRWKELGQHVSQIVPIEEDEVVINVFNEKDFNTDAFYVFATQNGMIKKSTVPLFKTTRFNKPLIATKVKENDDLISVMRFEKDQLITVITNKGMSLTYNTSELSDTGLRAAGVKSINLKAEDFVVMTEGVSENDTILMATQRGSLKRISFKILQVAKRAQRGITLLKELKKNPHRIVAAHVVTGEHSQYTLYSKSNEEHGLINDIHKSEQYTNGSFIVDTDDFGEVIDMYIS

[5] = conc. 100 μM, tested form: hydrochloride
[6] = read-out: IC50 DNA gyrase, concentration-response curve, eight half-log concentrations 0.1 to 300 μM, tested form: hydrochloride
[7] = read-out: IC50 Topo IV, concentration-response curve, eight half-log concentrations 0.1 to 300 μM
[8] = read-out: IC50 DNA gyrase, concentration-response curve, eight half-log concentrations 0.1 to 300 μM
[9] = conc. 50 μM, tested form: hydrochloride

Row | SMILES | % inhibition Topo IV [1, 5] | % inhibition DNA gyrase [2, 5] | % inhibition DNA gyrase [3, 5] | % inhibition Topo IV ([1]; conc. 50 μM) | % inhibition DNA gyrase ([2]; conc. 50 μM) | % inhibition DNA gyrase ([3]; conc. 50 μM) | % inhibition Topo IV [4] | % inhibition Topo IV [1, 9] | % inhibition DNA gyrase [2, 9] | % inhibition DNA gyrase [3, 9] | % inhibition Topo IV ([4]; tested form: hydrochloride) | other results
1 | O=c1nc(NCCCN2CCN(c3nccc4ccccc34)CC2)c2ccccc2o1 | 94% | 93% | 93% | – | – | – | – | – | – | – | – | IC50 ([1]; read-out: IC50 Topo IV, concentration-response curve, eight half-log concentrations 0.1 to 300 μM, tested form: hydrochloride): 16.5 µM; IC50 [2, 6]: 5.2 µM; IC50 [3, 6]: 20.4 µM
2 | O=c1cc(NCC(O)CN2CCN(c3nccc4ccccc34)CC2)c2ccccc2o1 (single isomer, unassigned) [Compound 94] | – | – | – | 91% | 100% | 100% | 88% | – | – | – | – | IC50 [1, 7]: 3 µM; IC50 [2, 8]: 4.2 µM; IC50 [3, 8]: 4.8 µM; IC50 [4]: 13.8 µM
3 | O=c1cc(NCCN2CCN(c3nccc4ccccc34)CC2)c2ccccc2o1 | 71% | 86% | 96% | – | – | – | – | – | – | – | – | –
4 | O=c1cc(NC[C@@H](O)CN2CCN(c3nccc4ccc(F)cc34)CC2)c2ccccc2o1 | – | – | – | 100% | 100% | 98% | 100% | – | – | – | – | –
5 | N#Cc1ccc2ccnc(N3CCN(CCCNc4cc(=O)oc5ccccc45)CC3)c2c1 | 96% | 81% | 100% | – | – | – | – | – | – | – | – | –
6 | O=c1cc(NCC(O)CN2CCN(c3nccc4ccccc34)CC2)c2ccccc2o1 (single isomer, unassigned) [Compound 93] | – | – | – | 100% | 95% | 100% | 63% | – | – | – | – | IC50 [1, 7]: 3.8 µM; IC50 [2, 8]: 5.2 µM; IC50 [3, 8]: 2.2 µM; IC50 [4]: 6.9 µM
7 | Cc1cc2ccccc2c(N2CCN(CCCNc3cc(=O)oc4ccccc34)CC2)n1 | 79% | 70% | 96% | – | – | – | – | – | – | – | – | –
8 | O=c1cc(NCCCN2CCN(c3nccc4ccc(F)cc34)CC2)c2c(o1)CCSC2 | – | – | – | – | – | – | – | 100% | 95% | 96% | 86% | –
9 | O=c1cc(NCCCN2CCN(c3nccc4ccccc34)CC2)c2cc(Cl)ccc2o1 | – | – | – | – | – | – | – | 100% | 87% | 100% | 92% | –
10 | O=c1nc(NC[C@@H](O)CN2CCN(c3nccc4ccc(F)cc34)CC2)c2ccccc2o1 | – | – | – | 100% | 100% | 100% | 100% | – | – | – | – | –
11 | O=c1cc(NCCCN2CCN(c3nccc4ccccc34)CC2)c2c(o1)CCCC2 | – | – | – | – | – | – | – | 64% | 95% | 96% | 53% | –
12 | O=c1cc(NCCCN2CCN(c3nc(F)cc4ccccc34)CC2)c2ccccc2o1 | – | – | – | – | – | – | – | 95% | 95% | 99% | 67% | –

— patent publication US10221144B2, “Antibacterial compounds having broad spectrum of activity” (priority 2014, dated 2019)
